Reference: the supplement of paper PMC12494721
The entries are a selection whose mix differs from that of the whole data set.

Experiments:
Conditions in all cases: incubation time: 27 h, anaerobic, 37 °C;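 for the amine columns active = adjusted P below 0.05 in both replicates with a change the same way and a mean fold change under 0.8 or over 1.25; inactive = the rest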
[1] = tested on: Clostridium sporogenes DSM 1664; test: growth (OD595) fold change vs plate DMSO controls (fold change (ratio)); higher = more growth
Outline: (§1)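 The measure reported is growth, taken as fold change against the median of DMSO controls on the same plate. Anaerobic mGAM cultures in 96-well plates (27 h, 37 °C) were read at 595 nm, blank-subtracted, corrected for compound background using 20 µM compound solutions in water, and multiplied by a calibration factor of 5 to give OD. Any fold change above 1.5 became NA, and 2 biological replicates were averaged.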

Escherichia coli IAI1 [2] = test: as above
Outline: as §1

[3] = tested on: Klebsiella aerogenes DSM 30053; test: as above
Outline: as §1

[4] = tested on: Ruminococcus gnavus DSM 108212; test: as above
Outline: as §1

[5] = tested on: Klebsiella aerogenes DSM 30053; test: fold change of Histamine concentration vs plate DMSO controls (fold change (ratio)); higher = more amine produced, active = hit call of the paper (significant change in both replicates, either direction)
Outline: (§2)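 Extracts of whole anaerobic mGAM cultures were analysed for amines by LC–triple-quadrupole MS with dynamic MRM and external calibration curves, with drift corrected within batch. Four gut strains were grown at 37 °C for 27 h in 80 µL wells with compounds at 20 µM final, sweeteners at 50 µM final. Each value expresses fold change over plate DMSO controls. The average of 2 biological replicates is shown.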

Escherichia coli IAI1 [6] = test: fold change of Putrescine concentration vs plate DMSO controls (fold change (ratio)); higher = more amine produced, active = hit call of the paper (significant change in both replicates, either direction)
Outline: as §2

[7] = tested on: Klebsiella aerogenes DSM 30053; test: as above
Outline: as §2

[8] = tested on: Clostridium sporogenes DSM 1664; test: fold change of Tryptamine concentration vs plate DMSO controls (fold change (ratio)); higher = more amine produced, active = hit call of the paper (significant change in both replicates, either direction)
Outline: as §2

[9] = tested on: Ruminococcus gnavus DSM 108212; test: as above
Outline: as §2

Escherichia coli IAI1 [10] = test: fold change of Cadaverine concentration vs plate DMSO controls (fold change (ratio)); higher = more amine produced, active = hit call of the paper (significant change in both replicates, either direction)
Outline: as §2

[11] = tested on: Klebsiella aerogenes DSM 30053; test: as above
Outline: as §2

[12] = tested on: Ruminococcus gnavus DSM 108212; test: fold change of 2-Phenylethylamine concentration vs plate DMSO controls (fold change (ratio)); higher = more amine produced, active = hit call of the paper (significant change in both replicates, either direction)
Outline: as §2

Compound: CCCCOP(=O)(OCCCC)OCCCC [Tributyl PO4] (20 µM)
- growth [1]: 0.846
- growth (Escherichia coli IAI1 [2]): 1
- growth [3]: 1.01
- growth [4]: 0.995
- fold change of Histamine concentration [5]: inactive: 0.976
- fold change of Putrescine concentration (Escherichia coli IAI1 [6]): inactive: 0.934
- fold change of Putrescine concentration [7]: inactive: 0.988
- fold change of Tryptamine concentration [8]: inactive: 1.08
- fold change of Tryptamine concentration [9]: inactive: 1.01
- fold change of Cadaverine concentration (Escherichia coli IAI1 [10]): inactive: 1.07
- fold change of Cadaverine concentration [11]: inactive: 1.02
- fold change of 2-Phenylethylamine concentration [12]: inactive: 1.08
